Assay results from PMC4081560 (PLoS ONE, 2014).

Settings: mouse

Compound	in vivo toxicity
NC(=O)c1nc(F)c[nH]c1=O [Favipiravir, 6-fluoro-3-hydroxy-2-pyrazinecarboxamide]	no in vivo toxicity was observed
CCC(CC)[C@H](NC(C)=O)[C@@H]1[C@H](O)[C@@H](C(=O)O)C[C@H]1N=C(N)N [Peramivir]	no in vivo toxicity was observed
